The subject of the assay is human immunodeficience virus (HIV). In words: Virucidal activity, suspension test in vitro (MU 3.52431-08). It is filed as cell-based. The source says:
Virucidal activity of copper acrylate-propionate obtained as described in example 4 was investigated by analogy with examples 14-19.
Virucidal activity of zinc methacrylate-myristate obtained as described in example 11 was investigated by analogy with examples 14-19.

As for Zinc methacrylate-myristate, the “Degree of virus inhibition, lg TCID50” value (biocide 0.01 % in aqueous solution, exposure 30 min) was 0.5 lg TCID50; the “Degree of virus inhibition, lg TCID50” value (biocide 0.01 %, exposure 60 min) is reported as 1.5 lg TCID50; the “Degree of virus inhibition, lg TCID50” value (biocide 0.05 %, exposure 30 min) is recorded as 3.0 lg TCID50; the “Degree of virus inhibition, lg TCID50” value (biocide 0.05 %, exposure 60 min) is listed as 4.5 lg TCID50; the “Degree of virus inhibition, lg TCID50” value (biocide 0.1 %, exposure 30 min) is on record as 5.5 lg TCID50; the “Degree of virus inhibition, lg TCID50” value (biocide 0.1 %, exposure 60 min) was 6.5 lg TCID50.

Values taken from patent US9924715B2, “Zinc or copper (II) salt and use thereof as a biocide” (LABORATORIYA BIO ZET, LLC, priority 2014, dated 2018).
